Experimental data reported in patent US12703729B2 (Zealand Pharma A/S, priority 2014, dated 2026).

Assay: general procedure: Fmoc solid-phase peptide synthesis; TentaGel S Ram S resin
Details: whole synthesis, analytical HPLC and MS, scale of the general procedure 1 g resin (0.25 mmol/g), 1.05 g resin (0.23 mmol/g)

H-Y-Aib-EGTFISDYSIELDK-K(Hexadecanoyl-isoGlu)-HQQDFVNWLLAQGPSSGAPPPS-NH2
crude purity (method not given): 30% | final HPLC purity: 96%
